Molecular target: T1, HCoV-OC43 N protein (HCoV-OC43), P33469
T1 chain: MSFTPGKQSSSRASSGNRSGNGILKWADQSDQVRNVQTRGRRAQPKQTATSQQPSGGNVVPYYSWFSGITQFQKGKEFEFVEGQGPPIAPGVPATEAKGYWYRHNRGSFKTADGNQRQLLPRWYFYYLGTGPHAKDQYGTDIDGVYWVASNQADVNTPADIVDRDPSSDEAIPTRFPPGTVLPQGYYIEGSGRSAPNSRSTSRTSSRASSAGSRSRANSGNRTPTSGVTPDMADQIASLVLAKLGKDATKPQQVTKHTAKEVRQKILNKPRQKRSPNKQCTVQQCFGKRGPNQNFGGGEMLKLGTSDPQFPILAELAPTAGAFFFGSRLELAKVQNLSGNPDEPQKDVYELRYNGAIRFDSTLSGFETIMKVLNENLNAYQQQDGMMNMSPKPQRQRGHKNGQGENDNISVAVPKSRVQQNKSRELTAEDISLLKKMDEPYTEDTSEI
Assay: cell-based or functional assay

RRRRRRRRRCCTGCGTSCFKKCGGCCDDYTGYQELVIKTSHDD (modifications not checked) [R-Spike CD-OC43] showed an HCoV-OC43 production (plaque formation assay, 2 uM peptide) of 20%.
